Compound potency records, mixed from different reports. Data source: NIAID ChemDB in PubChem.

All rows: growth or infection tests; organism: HIV-1; measure: EC50

An empty or dashed field is not shown. Two numbers with a dash give a range or band. Rows are shuffled and stem from different studies. ECn is the concentration giving n% inhibition of infection, replication or growth.

smiles	strain	read by	mutations	cell line	value
CC(C)C1=C2[C@H]3CC[C@@H]4[C@@]5(C)CC[C@H](OC(=O)[C@H]6C[C@@H](C(=O)O)C6(C)C)C(C)(C)[C@@H]5CC[C@@]4(C)[C@]3(C)CC[C@@]2(CC(=O)NCCN2CCCCC2)CC1=O	92HT599	p24 / ELISA	-	MT-2	<1 µM
Cc1ccc(OCCNc2ccc(-c3cnc(C)c([C@H](OC(C)(C)C)C(=O)O)c3N3CCC(C)(C)CC3)nc2)c(Cl)c1	NL4-3	luminescence	-	MT-2	0.0013 µM
N#CC1=CC2Nc3ccccc3C2N(c2ccc([N+](=O)[O-])cc2)C1=O	10076-4	GFP / fluorescence	-	HeLa	0.31 µM
Cc1ncc(-c2ccc(OCCC3COC3)cn2)c(N2CCC(C)(C)CC2)c1[C@H](OC(C)(C)C)C(=O)O	NL4-3	luminescence	-	MT-2	0.0076 µM
Cc1cc(C#N)cc(C(=O)c2cc(Cl)ccc2OCC(=O)Nc2ccc(S(N)(=O)=O)nc2C)c1	HXB2	β-galactosidase	RT-V106I Y181C	HeLa + HELA CD4+	<0.01 µM
CCOCCCOc1ccc(-c2cnc(C)c([C@H](OC(C)(C)C)C(=O)O)c2N2CCC(C)(C)CC2)nc1	NL4-3	luminescence	-	MT-2	0.0023 µM
Cc1cc2cn[nH]c2cc1NC(=O)COc1ccc(Cl)cc1C(=O)c1cccc(C#N)c1	HXB2 (RT-K103N G190A) Recombinant	β-galactosidase	RT-K103N G190A	HeLa + HELA CD4+	0.011–0.1 µM
CC(C)C1=C2[C@H]3CC[C@@H]4[C@@]5(C)CC[C@H](OC(=O)[C@H]6C[C@@H](C(=O)O)C6(C)C)C(C)(C)[C@@H]5CC[C@@]4(C)[C@]3(C)CC[C@@]2(CC(=O)NCc2cccnc2N2CCOCC2)CC1=O	92HT599	p24 / ELISA	-	MT-2	<1 µM
Cc1cc(S(N)(=O)=O)ccc1NC(=O)COc1ccc(Cl)cc1C(=O)c1cc(F)cc(C#N)c1	HXB2	β-galactosidase	RT-K103N	HeLa + HELA CD4+	<0.01 µM
CC(C)C1=C2[C@H]3CC[C@@H]4[C@@]5(C)CC[C@H](OC(=O)[C@H]6C[C@@H](C(=O)O)C6(C)C)C(C)(C)[C@@H]5CC[C@@]4(C)[C@]3(C)CC[C@@]2(CC(=O)NCC(C)(C)NC(=O)c2ccccn2)CC1=O	92HT599	p24 / ELISA	-	MT-2	<1 µM
Cc1cc(OCCCN2CCOCC2)ccc1NC(=O)COc1ccc(Cl)cc1C(=O)c1cccs1	Nevirapine-resistant (RT Y181C)	cytopathic effect / propidium iodide	RT-Y181C	MT-4	0.011–0.1 µM
CN1c2ccccc2C2C1C=C(C#N)C(=O)N2c1ccc([N+](=O)[O-])cc1	B-HXB2	GFP / fluorescence	-	MT-4	0.17 µM
Cc1ncc(-c2ccc(OCCOc3cccc(F)c3)cn2)c(N2CCC(C)(C)CC2)c1[C@H](OC(C)(C)C)C(=O)O	NL4-3	luminescence	-	MT-2	0.0009 µM
CC(C)C1=C2[C@H]3CC[C@@H]4[C@@]5(C)CC[C@H](OC(=O)[C@H]6C[C@@H](C(=O)O)C6(C)C)C(C)(C)[C@@H]5CC[C@@]4(C)[C@]3(C)CC[C@@]2(CC(=O)NCC(C)(CO)NC(=O)c2ccc(Cl)cc2)CC1=O	92HT599	p24 / ELISA	-	MT-2	<1 µM
CCc1cc(C#N)cc(C(=O)c2cc(Cl)ccc2OCC(=O)Nc2ccc(S(N)(=O)=O)cc2C)c1	HXB2	β-galactosidase	RT-P236L	HeLa + HELA CD4+	<0.01 µM
[2H]C(CNCC[C@@]12CC[C@]3(C)[C@H](CC[C@@H]4[C@@]5(C)CC[C@H](OC(=O)[C@H]6C[C@@H](C(=O)O)C6(C)C)C(C)(C)[C@@H]5CC[C@]43C)C1=C(C(C)C)C(=O)C2)(NC(=O)c1ccc(Cl)cc1)C(C)O	92HT599	p24 / ELISA	-	MT-2	<1 µM
Cc1ncc(-c2ccc(O[C@H](C)COc3ccccc3)cn2)c(N2CCC(C)(C)CC2)c1[C@H](OC(C)(C)C)C(=O)O	NL4-3	luminescence	-	MT-2	0.0009 µM
Cc1cc(S(N)(=O)=O)ccc1NC(=O)COc1ccc(Cl)cc1C(=O)c1cc(F)cc(C(F)(F)F)c1	HXB2	β-galactosidase	RT-K103N	HeLa + HELA CD4+	<0.01 µM
Cc1ncc(-c2ccc(OCCCOC(C)C)cn2)c(N2CCC(C)(C)CC2)c1[C@H](OC(C)(C)C)C(=O)O	NL4-3	luminescence	-	MT-2	0.0016 µM
Cc1cc2[nH]cnc2cc1NC(=O)COc1ccc(Cl)cc1C(=O)c1cc(F)cc(C(F)(F)F)c1	HXB2	β-galactosidase	RT-K103N V108I	HeLa + HELA CD4+	<0.01 µM
CC(C)C1=C2[C@H]3CC[C@@H]4[C@@]5(C)CC[C@H](OC(=O)[C@H]6C[C@@H](C(=O)O)C6(C)C)C(C)(C)[C@@H]5CC[C@@]4(C)[C@]3(C)CC[C@@]2(CCNC(=O)C2CCNCC2)CC1=O	92HT599	p24 / ELISA	-	MT-2	<1 µM
C=CC(CC)Oc1ccc(-c2cnc(C)c([C@H](OC(C)(C)C)C(=O)O)c2N2CCC(C)(C)CC2)nc1	NL4-3	luminescence	-	MT-2	0.0023 µM

Repeating the final 3 entries:

Cc1cc2[nH]cnc2cc1NC(=O)COc1ccc(Cl)cc1C(=O)c1cc(F)cc(C(F)(F)F)c1 ; strain: HXB2 ; read by: β-galactosidase ; mutations: RT-K103N V108I ; cell line: HeLa + HELA CD4+ ; value: <0.01 µM
CC(C)C1=C2[C@H]3CC[C@@H]4[C@@]5(C)CC[C@H](OC(=O)[C@H]6C[C@@H](C(=O)O)C6(C)C)C(C)(C)[C@@H]5CC[C@@]4(C)[C@]3(C)CC[C@@]2(CCNC(=O)C2CCNCC2)CC1=O ; strain: 92HT599 ; read by: p24 / ELISA ; cell line: MT-2 ; value: <1 µM
C=CC(CC)Oc1ccc(-c2cnc(C)c([C@H](OC(C)(C)C)C(=O)O)c2N2CCC(C)(C)CC2)nc1 ; strain: NL4-3 ; read by: luminescence ; cell line: MT-2 ; value: 0.0023 µM